{"source": "patent US8889153B2", "about": "“Combination of immunomodulator and anti-pathogenic agent” (priority 2008, dated 2014)", "tested_on": "Punta Toro virus - Adames strain", "format": "in vivo, Punta Toro virus (host: C57BL/6 mice)", "settings": "for Hepatic parameters (ALT) ALT ± Standard Deviation / Viral load ± Standard deviation, Liver / Viral load ± Standard deviation, Serum / Percentage of animals with detectable viruses, Liver / Percentage of animals with detectable viruses, Serum: 3rd day of infection; for Percentage of animals with detectable viruses, Liver / Percentage of animals with detectable viruses, Serum: 5 animals; for Parameters of Hepatic Damage (Score) Score ± Standard Deviation: 3rd day; for Number of survivors: 21 days", "key": {"[1]": {"settings": "Immunomodulator 1 mg/kg single dose i.p. 24 h after infection"}, "[2]": {"settings": "Immunomodulator 10 mg/kg single dose i.p. 24 h after infection"}, "[3]": {"settings": "Immunomodulator 100 mg/kg single dose i.p. 24 h after infection"}}, "note": "Like-named read-outs stand apart in the source and are kept apart here. Marks after values point to notes of the source that are not given here."}
{"substance": "proteic aggregate of ammonium and magnesium phospholinoleate-palmitoleate anhydride [Immunomodulator]", "values": [{"measurement": "Hepatic parameters (ALT) ALT ± Standard Deviation", "setting": "[1]", "value": "2892 ± 2170", "unit": "UI/liter"}, {"measurement": "Viral load ± Standard deviation, Liver", "setting": "[1]", "value": "<3.3 ± 1.1 Log10 CCID50/0.1 g of liver"}, {"measurement": "Viral load ± Standard deviation, Serum", "setting": "[1]", "value": "6.3 ± 0.8 Log10 CCID50/ml of serum"}, {"measurement": "Percentage of animals with detectable viruses, Liver", "setting": "[1]", "value": "(20) %"}, {"measurement": "Percentage of animals with detectable viruses, Serum", "setting": "[1]", "value": "(100) %"}, {"measurement": "Parameters of Hepatic Damage (Score) Score ± Standard Deviation", "setting": "[1]", "value": "3.3 ± 0.4"}, {"measurement": "Number of survivors", "setting": "[1]", "value": "5/10"}, {"measurement": "Hepatic parameters (ALT) ALT ± Standard Deviation", "setting": "[2]", "value": "2069 ± 2024", "unit": "UI/liter"}, {"measurement": "Viral load ± Standard deviation, Liver", "setting": "[2]", "value": "<3.3 ± 0.8 Log10 CCID50/0.1 g of liver"}, {"measurement": "Viral load ± Standard deviation, Serum", "setting": "[2]", "value": "5.7 ± 1.0 Log10 CCID50/ml of serum"}, {"measurement": "Percentage of animals with detectable viruses, Liver", "setting": "[2]", "value": "(60) %"}, {"measurement": "Percentage of animals with detectable viruses, Serum", "setting": "[2]", "value": "(100) %"}, {"measurement": "Parameters of Hepatic Damage (Score) Score ± Standard Deviation", "setting": "[2]", "value": "2.8 ± 0.3"}, {"measurement": "Number of survivors", "setting": "[2]", "value": "4/10"}, {"measurement": "Hepatic parameters (ALT) ALT ± Standard Deviation", "setting": "[3]", "value": "2879 ± 1598", "unit": "UI/liter"}, {"measurement": "Viral load ± Standard deviation, Liver", "setting": "[3]", "value": "< 2.8 Log10 CCID50/0.1 g of liver"}, {"measurement": "Viral load ± Standard deviation, Serum", "setting": "[3]", "value": "<4.9 ± 1.4 Log10 CCID50/ml of serum"}, {"measurement": "Percentage of animals with detectable viruses, Liver", "setting": "[3]", "value": 0, "unit": "%"}, {"measurement": "Percentage of animals with detectable viruses, Serum", "setting": "[3]", "value": "(80) %"}, {"measurement": "Parameters of Hepatic Damage (Score) Score ± Standard Deviation", "setting": "[3]", "value": "3.0 ± 0.4"}, {"measurement": "Number of survivors", "setting": "[3]", "value": "10/10**"}]}
